Experiments:
C. perfringens MLG0418 = assay: MIC microtitration assay; format: cell-based, Clostridium perfringens
C. perfringens MLG0618 = assay: MIC microtitration assay; format: cell-based, Clostridium perfringens
C. perfringens MLG0712 = assay: MIC microtitration assay; format: cell-based, Clostridium perfringens
C. perfringens MLG1108 = assay: MIC microtitration assay; format: cell-based, Clostridium perfringens
C. perfringens MLG1619 = assay: MIC microtitration assay; format: cell-based, Clostridium perfringens
C. perfringens MLG1819 = assay: MIC microtitration assay; format: cell-based, Clostridium perfringens
C. perfringens MLG2203 = assay: MIC microtitration assay; format: cell-based, Clostridium perfringens
C. perfringens MLG2314 = assay: MIC microtitration assay; format: cell-based, Clostridium perfringens
C. perfringens MLG2919 = assay: MIC microtitration assay; format: cell-based, Clostridium perfringens
C. perfringens MLG3111 = assay: MIC microtitration assay; format: cell-based, Clostridium perfringens
C. perfringens MLG3406 = assay: MIC microtitration assay; format: cell-based, Clostridium perfringens
C. perfringens MLG4201 = assay: MIC microtitration assay; format: cell-based, Clostridium perfringens
C. perfringens MLG4206 = assay: MIC microtitration assay; format: cell-based, Clostridium perfringens
C. perfringens MLG5719 = assay: MIC microtitration assay; format: cell-based, Clostridium perfringens
C. perfringens MLG5806 = assay: MIC microtitration assay; format: cell-based, Clostridium perfringens
C. perfringens MLG6907 = assay: MIC microtitration assay; format: cell-based, Clostridium perfringens
C. perfringens MLG7009 = assay: MIC microtitration assay; format: cell-based, Clostridium perfringens
C. perfringens MLG7307 = assay: MIC microtitration assay; format: cell-based, Clostridium perfringens
C. perfringens MLG7309 = assay: MIC microtitration assay; format: cell-based, Clostridium perfringens
C. perfringens MLG7814 = assay: MIC microtitration assay; format: cell-based, Clostridium perfringens
[1] = tested on: Enterococcus cecorum CECO 0009; assay: MIC microtitration assay; format: cell-based
[2] = tested on: Enterococcus faecalis ATCC 29212; assay: MIC microtitration assay; format: cell-based
[3] = tested on: Listeria monocytogenes ATCC 1911; assay: MIC microtitration assay; format: cell-based
[4] = tested on: Pseudomonas aeruginosa ATCC 27855; assay: MIC microtitration assay; format: cell-based
[5] = tested on: Staphylococcus aureus ATCC 6538; assay: MIC microtitration assay; format: cell-based
[6] = tested on: Staphylococcus aureus C411 (methicillin-resistant S. aureus); assay: MIC microtitration assay; format: cell-based
[7] = tested on: Streptococcus pyogenes ATCC 19615; assay: MIC microtitration assay; format: cell-based
Streptococcus suis C2058 = assay: MIC microtitration assay; format: cell-based
[8] = tested on: L. monocytogenes ATCC1911; assay: Agar well diffusion; format: cell-based, Listeria monocytogenes; settings: Mueller–Hinton soft agar, 80 μL of enterocin at 200 μg/mL, 24 h 37 °C, dash = not active
E. faecalis ATCC29212 = assay: Agar well diffusion; format: cell-based, Enterococcus faecalis; settings: Mueller–Hinton soft agar, 80 μL of enterocin at 200 μg/mL, 24 h 37 °C, dash = not active
E. cecorum C0009 = assay: Agar well diffusion; format: cell-based, Enterococcus cecorum; settings: Mueller–Hinton soft agar, 80 μL of enterocin at 200 μg/mL, 24 h 37 °C, dash = not active
S. suis C2058 = assay: Agar well diffusion; format: cell-based, Streptococcus suis; settings: Mueller–Hinton soft agar, 80 μL of enterocin at 200 μg/mL, 24 h 37 °C, dash = not active
S. pyogenes ATCC19615 = assay: Agar well diffusion; format: cell-based, Streptococcus pyogenes; settings: Mueller–Hinton soft agar, 80 μL of enterocin at 200 μg/mL, 24 h 37 °C, dash = not active
S. aureus ATCC6538 = assay: Agar well diffusion; format: cell-based, Staphylococcus aureus; settings: Mueller–Hinton soft agar, 80 μL of enterocin at 200 μg/mL, 24 h 37 °C, dash = not active
S. aureus C411 = assay: Agar well diffusion; format: cell-based, Staphylococcus aureus; settings: S. aureus C411 (methicillin-resistant); Mueller–Hinton soft agar, 80 μL of enterocin at 200 μg/mL, 24 h 37 °C; dash = not active
P. aeruginosa ATCC27855 = assay: Agar well diffusion; format: cell-based, Pseudomonas aeruginosa; settings: Mueller–Hinton soft agar, 80 μL of enterocin at 200 μg/mL, 24 h 37 °C, dash = not active

CC[C@H](C)[C@H](NC(=O)[C@H](Cc1c[nH]cn1)NC(=O)[C@H](CCCCN)NC(=O)[C@H](CCCCN)NC(=O)[C@@H](NC(=O)[C@H](Cc1c[nH]c2ccccc12)NC(=O)[C@H](CCC(=O)O)NC(=O)[C@@H](NC(=O)[C@@H](NC(=O)[C@H](CCCCN)NC(=O)[C@H](CC(N)=O)NC(=O)[C@@H](NC(=O)[C@H](C)NC(=O)[C@H](Cc1c[nH]c2ccccc12)NC(=O)CNC(=O)[C@H](CCC(=O)O)NC(=O)CNC(=O)[C@@H](NC(=O)[C@H](Cc1ccccc1)NC(=O)[C@H](CCC(N)=O)NC(=O)[C@H](CCSC)NC(=O)[C@@H](NC(=O)[C@H](CCC(N)=O)NC(=O)[C@H](CCCCN)NC(=O)[C@H](Cc1ccc(O)cc1)NC(=O)[C@H](Cc1ccc(O)cc1)NC(=O)[C@H](CCCCN)NC(=O)[C@H](CCCCN)NC(=O)[C@@H](NC(=O)[C@@H](NC(=O)[C@@H]1CCCN1C(=O)[C@H](Cc1c[nH]c2ccccc12)NC(=O)CNC(=O)[C@H](Cc1ccccc1)NC(=O)[C@H](CCCCN)NC(=O)[C@H](C)NC(=O)[C@@H](NC(=O)[C@H](CC(C)C)NC(=O)[C@H](CCCCN)NC(=O)[C@H](C)NC(=O)[C@@H](NC(=O)[C@H](C)NC(=O)CNC(=O)[C@@H](N)CCSC)[C@@H](C)CC)C(C)C)[C@@H](C)CC)C(C)C)[C@@H](C)CC)[C@@H](C)CC)[C@@H](C)CC)[C@@H](C)CC)[C@@H](C)CC)[C@@H](C)CC)C(=O)O [Enterocin L50A]
26 mm: Inhibition halos (S. pyogenes ATCC19615)
0.78 µg/mL: MIC [7]
<0.19 µg/mL: MIC [3]
14 mm: Inhibition halos (P. aeruginosa ATCC27855)
1.56 µg/mL: MIC (C. perfringens MLG0712) | MIC (C. perfringens MLG7307) | MIC [1] | MIC (Streptococcus suis C2058)
3.12 µg/mL: MIC (C. perfringens MLG1108) | MIC (C. perfringens MLG2314) | MIC (C. perfringens MLG3111) | MIC [2]
12.5 µg/mL: MIC (C. perfringens MLG1619) | MIC (C. perfringens MLG2203) | MIC (C. perfringens MLG6907) | MIC (C. perfringens MLG7814) | MIC [4] | MIC [6]
28 mm: Inhibition halos (E. cecorum C0009)
6.25 µg/mL: MIC (C. perfringens MLG0418) | MIC (C. perfringens MLG0618) | MIC (C. perfringens MLG1819) | MIC (C. perfringens MLG2919) | MIC (C. perfringens MLG3406) | MIC (C. perfringens MLG4201) | MIC (C. perfringens MLG4206) | MIC (C. perfringens MLG5719) | MIC (C. perfringens MLG5806) | MIC (C. perfringens MLG7009) | MIC (C. perfringens MLG7309) | MIC [5]
13 mm: Inhibition halos (S. aureus C411)
15 mm: Inhibition halos [8] | Inhibition halos (E. faecalis ATCC29212) | Inhibition halos (S. suis C2058) | Inhibition halos (S. aureus ATCC6538)
